Anti-infective test results gathered from many reports (values: NIAID ChemDB through PubChem).

All rows: whole-cell or culture tests; organism: Mycobacterium tuberculosis

Lines come from different laboratories, so protocols vary.

structure | strain | mutations | read by | endpoint | dose | result
CCOc1ccc(N2C(=O)/C(=C/c3ccc(O)cc3)S/C2=N\c2ccccn2)cc1 | H37Rv |  |  | MIC |  | ≥25 µg/mL
COc1ccc(CCc2cc(OC)c3ccccc3n2)cc1OC | MT1 |  |  | MIC |  | 12.5 µg/mL
COc1cccc2ccc(N3CCC(c4nc(-c5ccc(O)cc5)no4)CC3)nc12 | H37Rv |  | resazurin | MIC |  | 7.8–15.6 µM
CO[C@H]1/C=C/O[C@@]2(C)Oc3c(C)c(O)c4c(O)c(c(/C=N/N5CCN(C6CCCC6)CC5)c(O)c4c3C2=O)NC(=O)/C(C)=C\C=C\[C@H](C)[C@H](O)[C@@H](C)[C@@H](O)[C@@H](C)[C@H](O)[C@@H]1C | Isolate 900145 drug-susceptible |  |  | MIC |  | 0.5 µg/mL
CC(C)(c1cc(Cl)c(O)c(CN2CCOCC2)c1)c1cc(Cl)c(O)c(CN2CCOCC2)c1 | H37Rv |  | resazurin | MIC bound |  | >6.25 µg/mL
COc1ccc2c(c1)OCC(C1C(=O)c3ccc(OC)cc3OC1c1ccccc1)C2=O |  |  |  | inhibition | 12.5 µg/mL | 0%
O=c1oc2c(-c3ccccc3)c(=O)n3c(c2c(O)c1Cc1ccccc1)CCC3 | H37Ra |  |  | MIC |  | 256 µg/mL
Nc1cccc2c1C(=O)c1ccc(C(=O)O)cc1C2=O | H37Rv |  | BACTEC | MIC bound |  | >12.5 µg/mL
CC[C@@H](CO)NCCN[C@@H](CC)CO | MDR12 |  | broth dilution / resazurin | MIC |  | 8 µg/mL
N[C@@H](Cn1ccc(=O)c(O)c1)C(=O)O | H37Rv |  | BACTEC | MIC |  | ≥12.8 µg/mL
NNC(=O)c1ccncc1 | H37Rv |  |  | EC50 |  | 0.72 µM
N/C(=N\N=C/c1cn(Cc2ccc(Br)cc2)c2ccccc12)c1ccc2ccccc2n1 | H37RV (INH RMP OFL-S) |  |  | MIC |  | 64 µg/mL
C=CCN1C(=O)/C(=C\c2cccs2)S/C1=N\c1nc2ccccc2s1 | H37Rv |  |  | MIC |  | ≥25 µg/mL
O=C(O)CC1C(=O)OC2C(COC(=O)c3cc(O)c(O)c(O)c3)OC(OC(=O)c3cc(O)c(O)c(O)c3)C(OC(=O)c3cc(O)c(O)c4c3C1C(O)C(=O)O4)C2OC(=O)c1cc(O)c(O)c(O)c1 | H37Rv |  | BACTEC | inhibition | 12.5 µg/mL | 0%
COc1ccccc1Oc1ccccc1NC(C)=O | H37Rv |  |  | MIC |  | 500–1000 µg/mL
O=C1CC(N2C(=O)C3C4CCC(O4)C3C2=O)C(=O)N1 | H37Rv |  | BACTEC | MIC bound |  | >12.5 µg/mL
C[C@@H]1CC[C@]2(C)CC[C@]3(C)C(=CCC4[C@@]5(C)CC[C@@H](O)C(C)(C)C5CC[C@]43C)C2C1 |  |  |  | MIC |  | >128 µg/mL
COC(=O)c1cc(OC)c(OC)c(Oc2ccc(C(=O)OC)c([N+](=O)[O-])c2)c1 | H37Rv |  |  | MIC |  | 250–1000 µg/mL
N/C(=N\N=C/c1cn(Cc2cccc(Cl)c2)c2ccccc12)c1ccc2ccccc2n1 | H37RV (INH RMP OFL-S) |  |  | MIC |  | >128 µg/mL
CCCCCCCCCCCCCCCC(=O)N(O)CCCC[C@H](NC(=O)C1COC(c2ccccc2O)=N1)C(=O)O[C@H](C)[C@H](NC(=O)OC(C)(C)C)C(=O)N[C@H]1CCCCN(O)C1=O | H37Rv |  |  | MIC |  | >12.5 µg/mL
COc1cc(C=O)cc(Oc2c(OC)cc(C=O)cc2[N+](=O)[O-])c1O | H37Rv |  |  | MIC |  | 1000 µg/mL
Cc1noc(-c2nc(C)c3c(c2N)C(=O)N(Cc2cccc(OC(F)(F)F)c2)C3=O)n1 | H37Rv-MA | deltaCydKO | resazurin / visual reading | MIC90 |  | <0.019 µM
CC(C)/C=C/C[C@@H](C)[C@H]1CC[C@@]2(C)C3CCC4C(C)(C)[C@@H](O)CCC45CC35CC[C@]12C |  |  |  | MIC |  | 8 µg/mL
Nc1nc(Cl)cc(Nc2ccccc2Br)n1 | H37Rv |  | BACTEC | MIC bound |  | >12.5 µg/mL
COc1ccc(/C=C2\COc3ccccc3C2=O)c(OC)c1 | H37Rv |  | broth dilution / resazurin | inhibition | 10 µg/mL | 0%
N/C(=N\N=C/c1cn(Cc2cccc(Br)c2)c2ccccc12)c1ccc2ccccc2n1 | H37RV (INH RMP OFL-S) |  |  | MIC |  | 64 µg/mL
C[N+](C)(CCCN1c2ccccc2Sc2ccc(Cl)cc21)Cc1ccccc1 | H37Rv |  |  | MIC |  | 1.11 µg/mL
CC1(C)CC(=O)C2=C(C1)NC(SSC1=C(C#N)C(c3ccc(F)cc3)C3=C(CC(C)(C)CC3=O)N1)=C(C#N)C2c1ccc(F)cc1 | H37Rv |  | BACTEC | inhibition | 12.5 µg/mL | -1%
CCCCCCCCCCCCCCCC(=O)N(O)CCCC[C@H](NC(=O)[C@@H]1COC(c2ccccc2O)=N1)C(=O)NC[C@H](NC(=O)OC(C)(C)C)C(=O)NC1CCCCN(O)C1=O | H37Rv |  |  | MIC |  | <0.2 µg/mL
COc1cccc2ccc(N3CCC(c4nc(-c5ccc(N6CCCCC6)nc5)no4)CC3)nc12 | H37Rv |  | resazurin | MIC |  | <7.8 µM
C/C(=C\CO)CCC[C@H](C)CCC[C@H](C)CCCC(C)C | H37Rv |  |  | MIC |  | 2 µg/mL
C=CCN1C(=O)/C(=C/c2ccc(OC)c(OC)c2)S/C1=N\c1nc2ccccc2s1 | H37Rv |  |  | MIC |  | ≥25 µg/mL
COc1ccc2cc1-c1cc(ccc1O)C[C@H]1c3cc4c(cc3CCN1C)Oc1c(OC)cc3c(c1O4)[C@@H](C2)N(C)CC3 | H37Rv-PAS-R ATCC 35821 |  | resazurin | MIC |  | 3.1 µg/mL
C/C(=N/NC(=S)N1CCC(c2ccccc2)CC1)c1nccnc1C | ETA-R |  |  | MIC |  | 6.3 µg/mL
C=CCN1C(=O)/C(=C\c2ccco2)S/C1=N\c1nc2ccccc2s1 | H37Rv |  |  | MIC |  | ≥25 µg/mL
Cc1cc(N(CCC#N)CCC#N)ccc1C=Nc1ccc(C(=O)NN2C(=O)/C(=C/c3ccc(N(CCC#N)CCC#N)cc3)N=C2c2cc([N+](=O)[O-])ccc2Cl)cc1.O=NO | H37Rv |  | BACTEC | inhibition | 12.5 µg/mL | 24%
COc1ccc(/C(C)=N/NC(=O)c2ccncc2)c(OC)c1 | H37Rv |  |  | MIC |  | >20 µg/mL
O=c1c(Cc2ccccc2)c(O)cc2n1CCC2 | H37Ra |  |  | MIC |  | >128 µg/mL
O=C(CCN1C(=O)/C(=C/c2ccc3c(c2)OCO3)SC1=S)NNC(=O)c1ccccc1 | H37Rv |  |  | MIC |  | 54.95 µM
CCOc1ccc2c(c1)[n+]([O-])c(S(=O)(=O)c1ccc(C)cc1)c(N)[n+]2[O-] | RMP-R |  |  | MIC |  | 12.5 µg/mL
CCCCOC(=O)CSc1nnc(-c2ccc([N+](=O)[O-])s2)s1 | H37Rv |  | resazurin | inhibition | 6.25 µg/mL | 100%
O=C(C1=C2OC3C=CC=CC3SC2=CCC1)C1=C2OC3C=CC=CC3SC2=CCC1 | H37Rv |  | BACTEC | MIC bound |  | >12.5 µg/mL
COc1cc(C(OC(C)=O)OC(C)=O)cc(NC(C)=O)c1Oc1cc(C(OC(C)=O)OC(C)=O)cc(OC)c1OC(C)=O | H37Rv |  |  | MIC |  | 1000 µg/mL
C/C(=N\NC(=O)c1ccncc1)c1ccc(F)cc1 | H37Rv |  |  | MIC |  | >20 µg/mL
COC(=O)N[C@@H]1[C@H](C)O[C@@H](OC2C/C=C(\C)[C@H]3C=C[C@H]4[C@H](OC5C[C@@H](OC6C[C@@H](O)[C@@H](OC7C[C@@H](O)[C@@H](OC)[C@H](C)O7)[C@H](C)O6)[C@@H](O)[C@H](C)O5)[C@H](C)C[C@@H](C)[C@@H]4[C@@]3(C)/C(O)=C3/C(=O)OC4(C[C@H](C)C(C=O)=C[C@H]4/C=C\2C)C3=O)C[C@@]1(C)[N+](=O)[O-] | H37Ra |  | MTT | MIC90 |  | 2.6 µM
N/C(=N\N=C/c1cn(Cc2cccc(Br)c2)c2ccccc12)c1ccccn1 | H37RV (INH RMP OFL-S) |  |  | MIC |  | 16 µg/mL
CCOC(=O)CSc1nnc(-c2ccc([N+](=O)[O-])s2)s1 | H37Rv |  | resazurin | inhibition | 6.25 µg/mL | 58%
COc1cc(CC#N)cc(Oc2ccc(C(=O)O)cc2)c1OC | H37Rv |  |  | MIC |  | 125–250 µg/mL
COc1cccc(/C=C2\CCCCCC2=O)c1 | H37Rv |  | broth dilution / resazurin | inhibition | 12.5 µg/mL | 0%
COc1ccccc1Oc1ccccc1 | H37Rv |  |  | MIC |  | 125–500 µg/mL
COc1cc(/C=N/NC(=O)C(=O)N/N=C/c2cc(OC)c(OC)c(OC)c2)cc(OC)c1OC | H37Rv |  | BACTEC | MIC bound |  | >12.5 µg/mL
CO/C(=N\N=C\c1cccc(Cl)c1)c1ccncc1 | 6 PI |  |  | MIC |  | >20 µg/mL
Cc1cc(NNC(N)=S)c2ccccc2c1N=NC(N)=S | H37Rv |  | BACTEC | inhibition | 12.5 µg/mL | 9%
O=c1oc2cc3n(c(=O)c2c(O)c1-c1ccccc1)CCC3 | H37Ra |  |  | MIC |  | ≥256 µg/mL
CCCCCCC(C)c1ccc2c(c1)C(=O)c1nc3ccncc3c(=O)n1-2 | H37Rv |  |  | MIC |  | 0.015 µg/mL
O=C(O)c1c(O)c(Cc2ccccc2)c(=O)n2c1CCC2 | H37Ra |  |  | MIC |  | >256 µg/mL
CCN(CC)c1ccc2nc3ccc(N(CC)CC)cc3[n+](-c3ccccc3)c2c1.[Cl-] | H37Rv |  | BACTEC | MIC bound |  | ≤12.5 µg/mL
O=C1CC(c2ccc(O)cc2)Oc2cc(O)c(Oc3ccc(-c4cc(=O)c5c(O)cc(O)cc5o4)cc3)c(O)c21 |  |  |  | inhibition | 12.5 µg/mL | 0%
COC(=O)N[C@@H]1[C@H](C)O[C@@H](OC2C/C=C(\C)[C@H]3C=C[C@H]4[C@H](O)[C@H](C)C[C@@H](C)[C@@H]4[C@@]3(C)/C(O)=C3/C(=O)OC4(C[C@H](C)C(CO)=C[C@H]4/C=C\2C)C3=O)C[C@@]1(C)N | H37Ra |  | MTT | MIC90 |  | >100 µM
O=C1c2ccccc2N2Oc3ccccc3C12c1ccccc1 | H37Rv |  | resazurin | inhibition | 6.25 µg/mL | 26%
C=CCN1C(=O)/C(=C\c2ccc(C)o2)S/C1=N\c1nc2ccccc2s1 | H37Rv |  |  | MIC |  | 12.5 µg/mL
N/C(=N\N=C/c1cn(Cc2ccccc2)c2ccccc12)c1ccc2ccccc2n1 | H37RV (INH RMP OFL-S) |  |  | MIC |  | 16 µg/mL
COc1ccc(CCC2CCc3ccccc3N2C)cc1OC | MT4 |  |  | MIC |  | >322 µg/mL
COc1cccc2ccc(N3CCC(c4nc(-c5cccnc5)no4)CC3)nc12 | H37Rv |  | resazurin | MIC |  | 15.6–31.5 µg/mL
CN(C)c1ccc(/C=C2\COc3ccccc3C2=O)cc1 | H37Rv |  | broth dilution / resazurin | inhibition | 10 µg/mL | 0%
COc1cc(/C=C/[N+](=O)[O-])ccc1O | H37Rv |  |  | MIC |  | 500 µg/mL
COC1=CC(=O)C(CCC(C)=O)=CC1=O | H37Rv |  | BACTEC | MIC bound |  | ≤128 µg/mL
COc1cc(/C=C2\SC(=S)N(CCC(=O)NNC(=O)c3ccccc3)C2=O)cc(OC)c1OC | H37Rv |  |  | MIC |  | 6.24 µM
O=c1oc2cc3n(c(=O)c2c(O)c1Cc1ccccc1)CCC3 | H37Ra |  |  | MIC |  | ≥256 µg/mL
Nc1cc(Br)cc2c1nc(NCCO)c1ccccc12 | H37Rv |  | BACTEC | inhibition | 12.5 µg/mL | -34%
COC(=O)Cc1cc(I)c(Oc2cc(C=O)cc(OC)c2OC(C)=O)c(I)c1 | H37Rv |  |  | MIC |  | 31.25–62.5 µg/mL
CC1=C(CN(CC(=O)O)CC(=O)O)C(=O)C(C(C)C)=C/C1=C(\c1ccccc1S(=O)(=O)O)c1cc(C(C)C)c(O)c(CN(CC(=O)O)CC(=O)O)c1C | H37Rv |  | BACTEC | inhibition | 12.5 µg/mL | 0%
O=C1/C(=C/c2cccc(Br)c2)COc2ccccc21 | H37Rv |  | broth dilution / resazurin | EC50 |  | 0.56 µg/mL
COC(=O)[C@H]1[C@H]2C[C@@H]3c4[nH]c5cccc(OC)c5c4CCN3C[C@H]2CC[C@H]1O | H37Rv |  | BACTEC | inhibition | 12.5 µg/mL | 16%
C=CCN1C(=O)/C(=C\c2cccnc2)S/C1=N\c1nc2ccccc2s1 | H37Rv |  |  | MIC |  | ≥25 µg/mL
CCCCN(CCCC)CCCCNc1ccc(C)c2sc3ccccc3c(=O)c12 | H37Rv |  | BACTEC | MIC bound |  | ≤12.5 µg/mL
C[C@@H]1CN(c2c(F)c(N)c3c(=O)c(C(=O)O)cn(C4CC4)c3c2F)C[C@H](C)N1 | 139 strains |  |  | Median MIC50 |  | 0.1 µg/mL

Percent inhibition refers to the dose given; in toxicity tests it is the harm to the cells. A number after MIC or MFC names an inhibition level or a share of isolates. Blank or dashed fields: not listed here. a–b is a range or a potency band. MIC bound comes from a single tested concentration. ECn is the concentration giving n% inhibition of infection, replication or growth.